A mixed list of measured activities; the numbers were collected in NIAID ChemDB.

All rows: growth or infection tests; organism: Candida albicans

An empty or dashed field is not shown.

smiles,read-out,strain or isolate,setting,method,value
CCN1CC(C)(C)OC(=O)C1CC(=O)NC1CCCC1,MIC,SC5314,-,broth dilution,50 µg/mL
Cc1c(O)cccc1C(=O)N[C@@H](CSc1ccccc1)[C@H](O)CN1C[C@H]2CCCC[C@H]2C[C@H]1C(=O)NC(C)(C)C,MIC,I127A,-,-,64 µg/mL
O=c1c2ccccc2cnn1Cc1nnc(NCCc2ccccc2)s1,MIC,ATCC 10231,-,-,32 µg/mL
CC(=O)OC12CCC(C(=O)C1)C1C(=O)N(CCCN3CCN(c4ccccc4)CC3)C(=O)C12,MIC,DSM 1886,-,broth dilution,>100 µM
CCCCCOc1ccc(-c2cc(-c3ccc(C(=O)N[C@H]4C[C@@H](O)[C@@H](O)NC(=O)[C@@H]5[C@@H](O)[C@@H](C)CN5C(=O)[C@H]([C@H](O)CC(N)=O)NC(=O)[C@H]([C@H](O)[C@@H](O)c5ccc(O)c(OS(=O)(=O)O)c5)NC(=O)[C@@H]5C[C@@H](O)CN5C(=O)[C@H]([C@@H](C)O)NC4=O)cc3)no2)cc1,MIC,2733A,-,-,0.125 µg/mL
Nc1[nH]c(=O)ncc1F,EC90,15 isolates,pH 6,broth dilution,0.5 µg/mL
CCCc1ccc(NS(=O)(=O)c2ccc(CN(C)CC(O)(Cn3cncn3)c3ccc(F)cc3F)cc2)cc1,MIC,DSY735,-,resazurin,0.29 µg/mL
CC(=O)N1CCN(c2ccc(OC[C@H]3CO[C@](Cn4ccnc4)(c4ccc(Cl)cc4Cl)O3)cc2)CC1,EC90,10 isolates,pH 5,broth dilution,0.5 µg/mL
NCCNC(=O)C1=Nc2ccc(NC(=O)C3=Nc4ccc(C(=O)Nc5ccc6[nH]c(C(=O)NCCN)cc6c5)cc4C3)cc2C1,MFC,-,-,-,4 µg/mL
C/C=C/c1nc2ccccc2n1CC(O)(Cn1cncn1)c1ccc(F)cc1F,MIC,-,-,-,25–50 µg/mL
NC(=O)N=Nc1c(O)[nH]c2cccc(Cl)c12,MIC,-,-,-,>1.56 µg/mL
Cc1ccc(C(C)C)cc1,MIC,ATCC 10231,-,-,0.16–0.32 µg/mL
CN(Cc1ccc(S(=O)(=O)Nc2ccccc2)cc1)CC(O)(Cn1cncn1)c1ccc(F)cc1F,MIC,CAAL-74,-,resazurin,0.06 µg/mL
O=C(COc1ccccc1)N=Nc1c(O)[nH]c2cccc(Cl)c12,MIC,-,-,-,>1.56 µg/mL
O=c1c2ccccc2cnn1CCc1n[nH]c(=S)n1-c1ccc(Cl)cc1,MIC,ATCC 10231,-,-,512 µg/mL
CC(C)c1ccc(S(=O)(=O)Nc2ccc(CN(C)CC(O)(Cn3cncn3)c3ccc(F)cc3F)cc2)cc1,MIC,DSY735,-,resazurin,0.24 µg/mL
CCC(C)CC(C)CCCCCCCCC(=O)N[C@H]1C[C@@H](O)[C@H](NCCN)NC(=O)[C@@H]2[C@@H](O)CCN2C(=O)[C@H]([C@H](O)CCN)NC(=O)[C@H]([C@H](O)[C@@H](O)c2ccc(O)cc2)NC(=O)[C@@H]2C[C@@H](O)CN2C(=O)[C@H]([C@@H](C)O)NC1=O,MIC,T25,-,-,2 µg/mL
Cc1ccc(S(=O)(=O)NC(=O)Nc2ccc(S(=O)(=O)Nc3nnc(S(N)(=O)=O)s3)cc2)cc1,MIC,C316,-,-,84 µg/mL
OC(c1ccc(Cl)cc1)c1nccn1CC(O)(Cn1cncn1)c1ccc(F)cc1F,MIC,-,-,-,25–50 µg/mL
OC[C@@H]1CO[C@](Cn2ccnc2)(c2ccc(-c3ccccc3)cc2)O1,EC50,44 strains,-,-,128 µg/mL
CCN1CC(C)(C)OC(=O)C1CC(=O)N(C)c1ccccc1,MIC,SC5314,-,broth dilution,>50 µg/mL
O=C(N=Nc1c(O)[nH]c2cccc(Cl)c12)Nc1ccccc1Cl,MIC,-,-,-,>1.56 µg/mL
COc1ccc2cc1Oc1ccc(cc1)CCc1cc(O)ccc1-c1ccc(cc1O)CC2,MIC,CA 02,-,broth dilution,>512 µg/mL
Cc1ccc(Nc2nnc(Cn3c(-c4ccc(Cl)cc4)nc4ccccc43)s2)cc1,MIC,-,-,-,100 µg/mL
CCN1CC(C)(C)OC(=O)C1CC(=O)NCC1CCCCC1,MIC,SC5314,-,broth dilution,>25 µg/mL
CC1(C)CC[C@]2(C)CC=C3[C@]4(C)CCC5C(C)(C)[C@@H](O)CC[C@]5(C)C4CC[C@@]3(C)C2C1,MIC,-,-,absorbance,>250 µg/mL
CN(Cc1ccc(NS(=O)(=O)c2ccccc2)cc1)CC(O)(Cn1cncn1)c1ccc(F)cc1F,MIC,98 001,-,resazurin,0.015 µg/mL
CC(=O)OC12CCC(C(=O)C1)C1C(=O)NC(=O)C12,MIC,DSM 1886,-,broth dilution,>100 µM
Fc1ccccc1Nc1nnc(Cn2c(-c3ccc(Cl)cc3)nc3ccccc32)s1,MIC,-,-,-,25 µg/mL
O=c1c2ccccc2cnn1CCc1n[nH]c(=S)n1-c1ccccc1,MIC,ATCC 10231,-,-,512 µg/mL
C[C@H]1C(=O)CCC2[C@]3(C)CC[C@@]4(C)C5CC(C)(C)CC[C@]5(C)CC[C@]4(C)C3CC[C@@]21C,MIC,-,-,absorbance,>250 µg/mL
COC(=O)[C@H]1[C@@H]2C[C@@H](O[C@@H]3O[C@H](C)[C@@H](O)[C@H](N)[C@@H]3O)/C=C/C=C/C=C/C=C/C=C/C=C/C=C/[C@H](C)[C@@H](O)[C@H](C)[C@H](C)OC(=O)C[C@H](O)C[C@H](O)[C@@H](O)CC[C@H](O)C[C@H](O)C[C@](O)(C[C@@H]1O)O2,MIC,15 isolates,pH 4,broth dilution,8 µg/mL
O=C(OCC1COC(Cn2ccnc2)(c2ccc(-c3ccccc3)cc2)O1)c1ccccc1,EC50,44 strains,-,-,8 µg/mL
C[C@@H](c1ncncc1F)[C@](O)(Cn1cncn1)c1ccc(F)cc1F,EC90,10 isolates,pH 4,broth dilution,>16 µg/mL
CCN1CC(C)(C)OC(=O)C1CC(=O)NC1CCCCC1,MIC,SC5314,-,broth dilution,50 µg/mL
c1csc(C(c2nccc3ccccc23)n2ccnc2)c1,MIC90,44 strains,-,-,128 µg/mL
CC(C)c1ccc(NS(=O)(=O)c2ccc(CN(C)CC(O)(Cn3cncn3)c3ccc(F)cc3F)cc2)cc1,MIC,98 001,-,resazurin,0.03 µg/mL
OC(Cn1cncn1)(Cn1cncn1)c1ccc(F)cc1F,MIC,1001,-,-,50 µg/mL
Clc1ccc(-c2nc3ccccc3n2Cc2nnc(Nc3cccc(Cl)c3)s2)cc1,MIC,-,-,-,12.5 µg/mL
Clc1cccc(Cl)c1COc1ccc(C(c2nccc3ccccc23)n2ccnc2)cc1,Mean MIC,17 strains,-,-,≥256 µg/mL
O=c1c2ccccc2cnn1Cc1nnc(NCc2ccccc2)s1,MIC,ATCC 10231,-,-,128 µg/mL
OC[C@H]1CO[C@](Cn2ccnc2)(c2ccc(-c3ccccc3)cc2)O1,MIC50,44 strains,-,-,32 µg/mL
COC1CC2CCC(C)C(O)(O2)C(=O)C(=O)N2CCCC2C(=O)OC(C(C)CC2CCC(O)C(OC)C2)CC(=O)C(C)/C=C(\C)C(O)C(OC)C(=O)C(C)CC(C)/C=C/C=C/C=C/1C,MIC,ATCC11651,-,-,1 µg/mL
Clc1ccc(COc2ccc(C(c3cccc4ccccc34)n3ccnc3)cc2)cc1.O=[N+]([O-])O,MIC90,17 strains,-,-,≥256 µg/mL
C[C@H]1[C@H](O)[C@@H](C)/C=C/C=C/C=C/C=C/C=C/C=C/C=C/[C@H](O[C@@H]2O[C@H](C)[C@@H](O)[C@H](N)[C@@H]2O)C[C@@H]2O[C@](O)(C[C@@H](O)C[C@@H](O)CC[C@H](O)[C@@H](O)C[C@@H](O)CC(=O)O[C@H]1C)C[C@H](O)[C@H]2C(=O)O,MIC50,ATCC 10231,-,-,1.25 µg/mL
CCN1CC(C)(C)OC(=O)C1CC(=O)NCCC(C)(C)C,MIC,SC5314,-,broth dilution,>25 µg/mL
CC(=O)N1CCN(c2ccc(OCC3COC(Cn4ccnc4)(c4ccc(-c5ccccc5)cc4)O3)cc2)CC1,MIC90,44 strains,-,-,64 µg/mL
O=c1cc(CO)occ1O,MIC99,CAN276,-,-,>12800 µM
COC1CC2CCC(C)C(O)(O2)C(=O)C(=O)N2CCCCC2C(=O)OC(C(C)CC2CCC(O)C(OC)C2)CC(=O)C(C)/C=C(\C)C(O)CC(=O)C(C)CC(C)/C=C/C=C/C=C/1C,MIC,ATCC11651,-,-,0.25 µg/mL
O=C(N=Nc1c(O)[nH]c2cc(Cl)ccc12)Nc1ccccc1Cl,MIC,-,-,-,1.56 µg/mL
C=CCSS(=O)CC=C,MIC50,Clinical Isolate 3071,-,broth dilution,1.56 µg/mL
COc1ccc2cc1Oc1ccc(cc1)CCc1ccc(c(O)c1)Oc1cccc(c1)CC2,MIC,CA 02,-,broth dilution,>512 µg/mL
CC(=O)OC12CCC(C(=O)C1)C1C(=O)N(CCCCN3CCN(c4ccccn4)CC3)C(=O)C12,MIC,DSM 1886,-,broth dilution,>100 µM
CC(C)c1ccc(NC(=O)CC2C(=O)OC(C)(C)CN2C2CCCC2)cc1,MIC,SC5314,-,broth dilution,>25 µg/mL
CC(C)c1nc2ccccc2n1CC(O)(Cn1cncn1)c1ccc(F)cc1F,MIC,-,-,-,6.25–12.5 µg/mL
COc1ccccc1N1CCN(CCCN2C(=O)C3C4CCC(OC(C)=O)(CC4=O)C3C2=O)CC1,MIC,DSM 1886,-,broth dilution,>100 µM
NS(=O)(=O)c1nnc(NS(=O)(=O)c2ccc(NC(=O)NS(=O)(=O)c3ccccc3)cc2)s1,MIC,C316,-,-,>100 µg/mL
O=c1c2ccccc2cnn1CCc1n[nH]c(=S)n1Cc1ccccc1,MIC,ATCC 10231,-,-,64 µg/mL
c1ccc(-c2ccc(C(c3ccccc3)n3ccnc3)cc2)cc1,MFC,ATCC 10231,-,-,20 µg/mL
Cc1ccc(Nc2nnc(Cn3ncc4ccccc4c3=O)s2)cc1,MIC,ATCC 10231,-,-,128 µg/mL
Fc1ccc(COc2ccc(C(c3ccc4ccccc4c3)n3ccnc3)cc2)c(F)c1.O=[N+]([O-])O,MIC90,16 strains,-,-,≥256 µg/mL
Oc1ccc2cc1Oc1ccc(cc1)CCc1ccc(O)c(O)c1Oc1cccc(c1)CC2,MIC,CA10,-,broth dilution,256 µg/mL
Clc1ccc(COc2ccc(C(c3cccc4ccccc34)n3ccnc3)cc2)c(Cl)c1.O=[N+]([O-])O,Mean MIC,17 strains,-,-,≥256 µg/mL
Clc1ccc(-c2nc3ccccc3n2Cc2nnc(Nc3ccccc3)s2)cc1,MIC,-,-,-,12.5 µg/mL
CC(C)c1ccc(NC(=O)CC2C(=O)OC(C)(C)CN2c2ccccc2)cc1,MIC,SC5314,-,broth dilution,>50 µg/mL
CCC(C)n1ncn(-c2ccc(N3CCN(c4ccc(OC[C@H]5CO[C@](Cn6cncn6)(c6ccc(Cl)cc6Cl)O5)cc4)CC3)cc2)c1=O,MIC,ATCC 10231,-,-,10 µg/mL
Cc1ccc(-c2nc3ccccc3n2CC(O)(Cn2cncn2)c2ccc(F)cc2F)cc1,MIC,-,-,-,100–200 µg/mL
CCN1CC(C)(C)OC(=O)C1CC(=O)Nc1ccncn1,MIC,SC5314,-,broth dilution,>50 µg/mL

Repeating the first 4 entries:

smiles,read-out,strain or isolate,setting,method,value
CCN1CC(C)(C)OC(=O)C1CC(=O)NC1CCCC1,MIC,SC5314,-,broth dilution,50 µg/mL
Cc1c(O)cccc1C(=O)N[C@@H](CSc1ccccc1)[C@H](O)CN1C[C@H]2CCCC[C@H]2C[C@H]1C(=O)NC(C)(C)C,MIC,I127A,-,-,64 µg/mL
O=c1c2ccccc2cnn1Cc1nnc(NCCc2ccccc2)s1,MIC,ATCC 10231,-,-,32 µg/mL
CC(=O)OC12CCC(C(=O)C1)C1C(=O)N(CCCN3CCN(c4ccccc4)CC3)C(=O)C12,MIC,DSM 1886,-,broth dilution,>100 µM

a–b is a range or a potency band. Rows are shuffled and stem from different studies. A number after MIC or MFC names an inhibition level or a share of isolates. ECn is the concentration giving n% inhibition of infection, replication or growth.